Record: PubChem BioAssay AID624099 (ICCB-Longwood, 2012)
The whole screen tested about 21,000 reagents; this is an unselected part. Of all reagents, 497 (2.4%) were called active. 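Higher z means weaker E2 silencing; only reporter increases were scored, and knock-downs that hurt cell survival may mask genuine repressor factors.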 Unmarked entries are inactive. No sequences are given here.

- Screen: 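Host factors E2 relies on to silence an HPV18 LCR reporter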 (primary screen)
- System: human C33A cervical carcinoma cells (HPV-negative) stably expressing BPV1 E2 and an HPV18 LCR luciferase reporter
- Reagent: siRNA pool against human genes, 40 nM
- Duration: 72 h
- Read-out: 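Per-well luciferase luminescence, z-scored on each plate against the plate mean and SD with control wells left out, then averaged across three replicate plates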
- Reading the numbers: mean z-score and z-score: higher = stronger reporter signal, weaker E2 silencing
- Hit rule: 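Hit if mean z-score reaches 2 and two or more of three replicate z-scores also reach 2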

gene	PubChem SID	mean z-score	z-score, replicate A	z-score, replicate B	z-score, replicate C
SOX8	SID134322852	0.27	0.51	0.03	0.26
LYSET	SID134325247	-1.72	-1.49	-1.8	-1.86
RANBP2	SID134310609	0.31	0.2	0.52	0.2
SNX11	SID134317887	1.6	1.23	1.65	1.93
LRRC1	SID134315161	-0.86	-0.79	-1.23	-0.58
TRAF3	SID134310832	-0.9	-0.6	-1.12	-0.96
NUP42	SID134323515	2.22 (active)	2.21	2.31	2.15
MAP7D3	SID134326225	1.22	1.91	0.96	0.78
ACTR2P2	SID134325909	0.61	0.4	0.31	1.11
USE1	SID134324728	2.56 (active)	2.75	2.62	2.31
INPP1	SID134313374	-0.04	0.06	0.08	-0.25
FAHD1	SID134318806	-0.71	-0.38	-0.92	-0.84
GMEB2	SID134316740	-0.05	-0.09	-0.13	0.08
SMC5	SID134318295	-0.33	-0.01	-0.69	-0.29
ROPN1B	SID134325754	-0.46	-0.83	-0.32	-0.22
MCRIP2	SID134315336	-0.41	-0.44	-0.31	-0.48
TCEANC	SID134326210	0.45	0.23	0.68	0.45
FOXRED1	SID134313063	0.72	0.94	0.73	0.48
BCAR1	SID134324163	-1.57	-1.62	-1.75	-1.33
TPSB2	SID134311477	-0.25	-0.03	-0.63	-0.08
MARVELD1	SID134318845	0.37	0.34	0.45	0.33
SALL3	SID134312098	1.01	1.47	0.91	0.66
CNTNAP4	SID134317938	2.1 (active)	2.09	1.98	2.22

Copied from the entries so far (2 entries):
gene	PubChem SID	mean z-score	z-score, replicate A	z-score, replicate B	z-score, replicate C
LRRC1	SID134315161	-0.86	-0.79	-1.23	-0.58
TRAF3	SID134310832	-0.9	-0.6	-1.12	-0.96
